Results as given in article PMC4989314, “Regulatory (pan-)genome of an obligate intracellular pathogen in the PVC superphylum”.
Construct, isoform or probe ends are uncertain for at least one entry. At least one verdict was read from the data and is not stated in words by the source. Protein sequences can lack the tags named with them.

Target: T1, His6-Euo (Waddlia chondrophila) (UniProt D6YSI2)
T1 sequence (looked up, limits assumed): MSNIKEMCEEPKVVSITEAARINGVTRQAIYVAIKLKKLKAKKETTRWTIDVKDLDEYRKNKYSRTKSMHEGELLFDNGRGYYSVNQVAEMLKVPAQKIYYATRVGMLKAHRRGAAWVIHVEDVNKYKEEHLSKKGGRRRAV
Test: EMSA
Details: EMSA with Cy5 PCR probes or 80 ng unlabelled DNA (GelRed), recombinant protein, protein details: His6

Sequence	binding result	binding result (label: Cy5)
AAACTGCAGGGCCAATCTTTCATTGATTGTCCATTCATGGTCGGCAATTTTTGAGAGAATTTCTTTATTTTAAAAAAGCAACTTTGATAAAATTGCAGGCATGGTGCAAGTGCAGGATTCAGTTTTAGGAAAAAAGACGTTTTATAAGGATCGGTACGAGTCGACAAA (double strand) [PqueF_6SNP_internal]	binds	
AAACTGCAGGGCCAATCTTTCATTGATTGTCCATTCATGGTCGGCAATTTTTGAGAGAATTTCTTTATTTTAAAATTCGTTCTTTGATAAAATTGCAGGCATGGTGCAAGTGCAGGATTCAGTTTTAGGAAAAAAGACGTTTTATAAGGATCGGTACGAGTCGACAAA (double strand) [PqueF_wt]		binds
AAACTGCAGGGCCAATCTTTCATTGATTGTCCATTCATGGTCGGCAATTTTTGAGAGAATTTCTTTATTTTAGGGTTCGTTCTTTGATAGGGTTGCAGGCATGGTGCAAGTGCAGGATTCAGTTTTAGGAAAAAAGACGTTTTATAAGGATCGGTACGAGTCGACAAA (double strand) [PqueF_mut 3+4]		binds
AAACTGCAGGGCCAATCTTTCATTGATTGTCCATTCATGGTCGGCAATTTTTGAGAGAATTTCTTTATTTTATTTATCGTTGAAAGATAAAATTGCAGGCATGGTGCAAGTGCAGGATTCAGTTTTAGGAAAAAAGACGTTTTATAAGGATCGGTACGAGTCGACAAA (double strand) [PqueF_8SNP]	binds	
AAACTGCAGGGCCAATCTTTCATTGATTGTCCATTCATGGTCGGCAATTTTTGAGAGAATTTCTTTATTTTATTTTTCGTTGAATGATAAAATTGCAGGCATGGTGCAAGTGCAGGATTCAGTTTTAGGAAAAAAGACGTTTTATAAGGATCGGTACGAGTCGACAAA (double strand) [PqueF_6SNP]	binds	
TTTGTCGACTTATCTTACACAACTGAGACTTCCAATGGTACTAAAATTCTTAAAATCTAGTTTTGAAAAAGTTAAAAATGCCCTCTCCAAAACGCGTTCCGCTCTGGGAGAAAAATTGCGTTCTCTTTTCAGTGGAAAAATCGATGAAGAAACACTGGACTGCAGTTT (double strand) [PftsY_wt]		binds
